Compound potency records, mixed from different reports. Data source: NIAID ChemDB in PubChem.

All rows: growth or infection tests; agent: Rhinovirus

ECn: concentration that inhibits the pathogen or its effect by n%. MIC50, MIC90 and the like: level of inhibition, or share of isolates inhibited. An empty or dashed field is not shown. Conditions beyond the fields shown may differ between rows. Inhibition is in % at the dose shown (toxicity tests: loss of growth or viability).

smiles | strain or isolate | cells | method | read-out | tested at | value
Nc1nc2c(ccn2[C@@H]2C[C@H](CO)[C@H](O)[C@@H]2O)c(=O)[nH]1 | TYPE 1B | - | - | MIC | - | >100 µg/mL
CN(C)c1nc(C(F)(F)F)nc2c1ncn2Cc1ccc(Cl)cc1Cl | Serotype 3 | M-HELA | plaque count | inhibition | 8 µM | 17%
Cc1cccc(C2=CCN(c3ccc(Br)nn3)CC2)c1 | 17 serotypes | - | - | inhibition | 0.016 µg/mL | 18%
Cc1cc(CCCCCOc2cc(Cl)c(-c3nnc(C)o3)c(Cl)c2)on1 | serotype 2 1A 1B 6 14 21 22 15 25 30 50 67 89 86 41 | - | - | MIC80 | - | 0.46 µg/mL
CC(=O)c1ccc(CCCOc2ccc(-c3noc(C(F)F)n3)c(C)c2)nn1 | serotypes 3 4 5 9 16 18 38 66 75 67 | HeLa | cytopathic effect | EC80 | - | 0.13 µg/mL
Cc1cc(CCCCCCCOc2ccc(C3=NCCO3)cc2)on1 | serotype 1A 1B 2 6 14 15 21 22 25 29 30 41 42 45 59 63 67 70 72 86 89 | - | - | MIC80 | - | 3.51 µM
CSc1nsc(-c2ccc(OCCCOc3ccc(C#N)cc3)cc2)c1C#N | Serotype 15 (group B) | HELA-OHIO | cytopathic effect | EC50 | - | >2 µM
CCCc1ccc(CCCOc2cc(C)c(-c3noc(C4CC4)n3)c(C)c2)nn1 | serotypes 3 4 5 9 16 18 38 66 75 67 | HeLa | cytopathic effect | EC80 | - | 0.19 µg/mL
CS(=O)(=O)c1ccc2c(c1)CCC(c1ccc(Cl)c(Cl)c1)O2 | 100 serotypes | - | - | inhibition | 32 µg/mL | 71%
Cc1cc(CCCCCOc2cc(Cl)c(-c3nnco3)c(Cl)c2)on1 | serotype 2 1A 1B 6 14 21 22 15 25 30 50 67 89 86 41 | - | - | MIC80 | - | 0.91 µg/mL
Nc1c(S(=O)(=O)O)cc2cc(S(=O)(=O)O)cc(O)c2c1O | - | Human embryonic lung cells | cytopathic effect | inhibition | 10 µg/mL | 0%
CSc1nsc(-c2ccc(OC(C)(C)C)cc2)c1C#N | Serotype 85 (group B) | HELA-OHIO | cytopathic effect | EC50 | - | 1 µM
Cc1cc(CCCCCOc2ccc(C3=NCCO3)c(C)c2)on1 | TYPE 14 | - | - | MIC | - | 1.6 µM
O=C(Nc1ccc2cc(S(=O)(=O)[O-])cc(S(=O)(=O)[O-])c2c1)c1ccccc1 | - | Human amnion AV3 cells | cytopathic effect | inhibition | 10 µg/mL | 0%
CSc1ncnc2c1ncn2[C@@H]1OC2COP(=O)(O)OC2[C@H]1O | TYPE 13 | - | - | MIC | - | 3.2 µg/mL
O=S(=O)(O)c1cc(O)c2c(O)c(N=Nc3ccccc3)c(S(=O)(=O)O)cc2c1 | - | Human embryonic lung cells | cytopathic effect | inhibition | 10 µg/mL | 90%
CN(C)c1nc(C(F)(F)F)nc2c1ncn2Cc1ccc(F)cc1 | Serotype 3 | M-HELA | plaque count | inhibition | 8 µM | 35%
CSc1nsc(-c2ccc(OCCCCOc3ccc(C#N)cc3)cc2)c1C#N | Serotype 85 (group B) | HELA-OHIO | cytopathic effect | EC50 | - | >2 µM
CCOC(=O)c1ccc(OCCCCC(=O)c2ccc(C)c(C)c2)cc1 | serotype 1A 1B 2 6 14 15 21 22 25 29 30 41 42 45 59 63 67 70 72 86 89 | - | - | MIC80 | - | >146 µM
FC(F)(F)c1cccc(C2CCN(c3ccc(Br)nn3)C2)c1 | 100 serotypes | - | - | inhibition | 0.01 µg/mL | 18%
CSc1nsc(-c2ccc(OCc3ccccc3)cc2)c1C#N | Serotype 85 (group B) | HELA-OHIO | cytopathic effect | EC50 | - | 1 µM
Cc1cc(OCCCc2ccc(C(F)F)nn2)cc(C)c1-c1noc(C(F)F)n1 | serotypes 3 4 5 9 16 18 38 66 75 67 | HeLa | cytopathic effect | EC80 | - | 0.31 µg/mL
N=C(N)CCNC(=O)C1CCC(N)=N1 | Serotype 2 | - | - | MIC | - | 1.5 µg/mL
CSc1nsc(-c2ccccc2)c1C#N | Serotype 45 (group A) | HELA-OHIO | cytopathic effect | EC50 | - | >80 µM
CCOC(=O)c1ccc(OCCCCOc2ccc(-c3snc(SC)c3C#N)cc2)cc1 | Serotype 14 (group A) | HELA-OHIO | cytopathic effect | EC50 | - | >2 µM
CN(C)c1ccc(Cn2cnc3c(N(C)C)nc(C(F)(F)F)nc32)cc1 | Serotype 21 | M-HELA | plaque count | inhibition | 8 µM | 27%
Fc1cccc(Cn2cnc3c(Nc4cccc(F)c4)nc(C(F)(F)F)nc32)c1 | Serotype 3 | M-HELA | plaque count | EC50 | - | 5.6 µM
O=P1(O)OCC2O[C@@H](n3cnc4c(=S)nc[nH]c43)[C@H](O)C2O1 | TYPE 13 | - | - | MIC | - | 320 µg/mL
CCOC(=O)c1ccc(OCCC2CCN(c3ccc(C)nn3)CC2)cc1 | Serotype 2 | - | - | EC90 | - | 0.035 µM
CCOC(=O)c1ccc(OCCCOc2ccc(-c3snc(SC)c3C#N)cc2)cc1 | Serotype 59 (group B) | HELA-OHIO | cytopathic effect | EC50 | - | >2 µM
CCOC(=O)c1ccc(OCCCCC(=O)c2ccc(SC)cc2)cc1 | serotype 1A 1B 2 6 14 15 21 22 25 29 30 41 42 45 59 63 67 70 72 86 89 | - | - | MIC80 | - | >268 µM
Cc1ccc(CCCOc2cc(C)c(-c3noc(C(F)(F)F)n3)c(C)c2)nn1 | serotypes 3 4 5 9 16 18 38 66 75 67 | HeLa | cytopathic effect | EC80 | - | 0.117 µg/mL
CN(C)c1ccc(Cn2cnc3c(Nc4cccc(F)c4)nc(C(F)(F)F)nc32)cc1 | Serotype 5 | M-HELA | plaque count | EC50 | - | >80 µM
CN(C)c1nc(C(F)(F)F)nc2c1ncn2Cc1ccc(Cl)c(NC=O)c1 | Serotype 3 | M-HELA | plaque count | inhibition | 8 µM | 40%
Cc1cc(CCCCCOc2ccc(C3=NCCO3)c(Cl)c2)on1 | TYPE 14 | - | - | MIC | - | 0.3 µM
CCCN=C1CCC(C(=O)NCCC(=N)N)N1 | Serotype 2 | - | - | MIC | - | >100 µg/mL
O=S(=O)(O)c1cccc2c(O)cccc12 | - | Human embryonic lung cells | cytopathic effect | inhibition | 50 µg/mL | 0%
N#Cc1cc([N+](=O)[O-])ccc1Oc1ccc(Cl)c(Cl)c1 | TYPE 1A | VERO | - | inhibition | 0.39 µg/mL | 37%
CCOC(=O)/C=C/[C@H](C[C@@H]1CCNC1=O)NC(=O)[C@@H](CC(=O)[C@@H](NC(=O)c1cc(C)on1)C(C)C)Cc1ccc(F)cc1 | Isolate 23 | OHIO HELA-I | cytopathic effect / visual reading | EC50 | - | <0.01 µg/mL
O=S(=O)([O-])c1ccc2c(NS(=O)(=O)c3ccccc3)cc(S(=O)(=O)[O-])cc2c1 | - | Human amnion AV3 cells | cytopathic effect | inhibition | 5 µg/mL | 0%
CSc1nsc(-c2ccc(OCCCOc3ccccc3)cc2)c1C#N | Serotype 45 (group A) | HELA-OHIO | cytopathic effect | EC50 | - | >20 µM
CC1CC(N)=NC1C(=O)NCCC#N | Serotype 2 | - | - | MIC | - | 100 µg/mL
CC1(C)COC(c2ccc(OCCN3CCN(c4ccc(Cl)nn4)CC3)cc2)=N1 | 17 serotypes | - | - | inhibition | 0.7 µg/mL | 18%
Cc1cc(CCCOc2c(C)cc(-c3noc(C(F)(F)F)n3)cc2C)on1 | Serotype 1A | - | - | EC90 | - | 1.4 µM
CCO/N=C/c1ccc(OCCC2CCN(c3ccc(Cl)nn3)CC2)cc1 | 204-CV14 (ICAM-1 receptor group 10) | KB | neutral red | EC50 | - | 0.773 µM
CSc1nsc(-c2ccc(OCCCc3ccccc3)cc2)c1C#N | Serotype 2 (group B) | HELA-OHIO | cytopathic effect | EC50 | - | >20 µM
CN(C)c1nc(C(F)(F)F)nc2c1ncn2Cc1ccc(S(C)(=O)=O)cc1 | Serotype 2 | M-HELA | plaque count | inhibition | 8 µM | 36%
N#CCCNC(=O)C1CCC(N)=N1 | Serotype 2 | - | - | MIC | - | 100 µg/mL
CSc1nsc(-c2ccc(OCCCOc3ccc([N+](=O)[O-])cc3)cc2)c1C#N | Serotype 89 (group B) | HELA-OHIO | cytopathic effect | EC50 | - | >1 µM
Cc1cc(OCCCc2ccc(C=O)nn2)cc(C)c1-c1noc(C(F)F)n1 | serotypes 3 4 5 9 16 18 38 66 75 67 | HeLa | cytopathic effect | EC80 | - | 0.33 µg/mL
CCOc1cc(O)c(C(=O)/C=C/c2ccc(OC)cc2)c(OC)c1 | 100 serotypes | - | - | inhibition | 0.4 µg/mL | 71%
Cc1ccc(C(=O)CCCCOc2ccc(C3=NCCO3)cc2)s1 | serotype 1A 1B 2 6 14 15 21 22 25 29 30 41 42 45 59 63 67 70 72 86 89 | - | - | MIC80 | - | 9.04 µM
N#CCCCCNC(=O)C1CCC(N)=N1 | Serotype 2 | - | - | MIC | - | >100 µg/mL
CCOC(=O)c1csc(N2CCN(Cc3cc(C)ccc3C)CC2)n1 | 17 serotypes | - | - | inhibition | 5 µg/mL | 53%

Repeating the first 4 entries:

smiles | strain or isolate | cells | method | read-out | tested at | value
Nc1nc2c(ccn2[C@@H]2C[C@H](CO)[C@H](O)[C@@H]2O)c(=O)[nH]1 | TYPE 1B | - | - | MIC | - | >100 µg/mL
CN(C)c1nc(C(F)(F)F)nc2c1ncn2Cc1ccc(Cl)cc1Cl | Serotype 3 | M-HELA | plaque count | inhibition | 8 µM | 17%
Cc1cccc(C2=CCN(c3ccc(Br)nn3)CC2)c1 | 17 serotypes | - | - | inhibition | 0.016 µg/mL | 18%
Cc1cc(CCCCCOc2cc(Cl)c(-c3nnc(C)o3)c(Cl)c2)on1 | serotype 2 1A 1B 6 14 21 22 15 25 30 50 67 89 86 41 | - | - | MIC80 | - | 0.46 µg/mL